Data from patent publication US20150086555A1 (THERACLONE SCIENCES, published 2015).

B1: TCN-522 (3212_I12) (antibody, V domains shown)
VH: QVQLQQWGAGLLKPSETLSLTCTVSGGSLTDYSWNWIRQPPGKGLEWIGDTLHNGYTNYNPSLRGRVSISIDTSKNQVSLRLTSVTAADTALYYCARGSGGYGGFDYFGKLRTWDFWGQGTLVTVSS
VL: DIQLTQSPSSLSASVGDRVTITCRASQGIRNDLGWYQQKPGNAPKRLIFGASSLQSGVPSRFSGSGSGTEFTLTISSLQPEDFATYYCLQHNSYPYTFGQGTKLEIK
B2: TCN-523 (5248_A17) (antibody, V domains shown)
VH: QVQLVQSGAEVKKPGSSVKVSCKASGGSFSNYAFSWVRQAPGQGLEWMGGTIPLLGTTNYAQKFQGRVTISADQFTSTAYMELGSLRSEDTAVYYCTRRKMTTAFDSWGQGTLVTVSS
VL: QPVLTQPPSASASLGASVTLTCTLSSAYSNYKVDWYQQRPGKGPRFVMRVGTGGIVGSKGDGIPDRFSVLGSGLNRYLTIKNIQEEDESDYHCGADHGSGSNFVSPYVFGGGTKLTVL
B3: TCN-526 (5084_C17) (antibody, V domains shown)
VH: EVLMVESGGGLVQPGGSVRLSCVASGFSFSSHWMTWVRQAPGKGLEWVANIEDDGGDKYYVDSVKGRFIISRDNAKNSVYLQMNSLRAEDTAVYFCARGSGSSDRSDYDPHYYYYLDVWGKGATVTVSS
VL: DIQLTQSPSSLSASVGDRVTITCRASQSISRYLNWYQQKPGKAPKLLLFAASTLLDGVPSRFSGSGSGTDFTLTISSLQPEDFATYYCQRNHSPSWTFGQGTRVEIK
B4: TCN-527 (5086_C06) (antibody, V domains shown)
VH: QVQLQESGPGLVKPSETLSLNCAVSGGSISNYYWSWIRQPPGKGLEWIGYISYNGRPKYNPSLTSRVTISVDTSKDQFSLELRSVTAADTALYYCARETRFGELLSPYDAFEIWGQGTMVTVSS
VL: DIQMTQSPSSLSASVGDRVTMTCRASQNIRSYLNWYQQRPGTAPKLLIYAASTLHSGVPSRFSGGGSGTDFTLTINNLQPEDFASYYCQQSYDNPQTFGQGTKVEIK
B5: TCN-528 (5087_P17) (antibody, V domains shown)
VH: QVQLVQSGSEVKKPGASVKVSCKASGYTFTNYDINWIRQAPGQGLEWMGWINPNSGTTGSAQRFQGRVTITVDTSITTVYMELSSLRSDDTAIYYCARGRELLRLQHFLTDSQSERRDCFDPWGQGTLVTVSS
VL: DIQMTQSPSSLSASVGDRVTITCRANQDIGIYLNWYQQNPGKVPKLLLHGASSLQGGVPSRFSASGSGTDFTLTIHSLQPEDLATYYCQQSRRLPYTFGQGTRVELK
B6: TCN-529 (5297_H01) (antibody, V domains shown)
VH: QITLRESGPTLVKPTQTLTLTCTFSGFSLSTNGVNVGWIRQPPGKALEWLALIYWDDDKRYSPSLKRRLTITKDTSKNQVVLTLTNMDPVDTATYYCAHRPDFYGDFEYWGPGTLVTVSS
VL: QSALTQPASVSGSPGQSITISCTGSSSDIGGYNYVSWYQQHPGKAPKLMIYDVNNRPSGVSNRFSGSKSGNTASLTISGLQTDDEADYYCGSYTGSPHYVFGTGTKVTVL
B7: TCN-530 (5248_H10a) (antibody, V domains shown)
VH: QVQLVQSGAEVRKPGSSVKVSCKASGGPFMSYAIGWVRQAPGQGLEWMGGINPVFGRPHYAQKFQGRVTIATDDSTKTSYMELSSLTSEDTGMYYCASRYSRSSPGTFESWGQGTLVTVSS
VL: EIVMTQFPATLSVSPGERVTLSCRASQSVSNNLAWYQQKPGQPPRLLIYDASTRATGVPAKFSGTGSGTEFTLSISSLQSEDFAVYYCQQYHNWPPSYSFGLGTKLEIK
B8: TCN-531 (5091_H13) (antibody, V domains shown)
VH: EVQLVESGGDLVQPGRSLKLSCTGSGFTFGDYGVTWVRQAPGKGLEWVGFIRTRPWGGTADTAASVKGRFTISRDDSKSLAYLQMNSLKTEDTAVYYCCRDAPPNVEVASMTNWYFDLWGRGTLVTVSS
VL: DIQLTQSPSSLSASVGDRVTITCRASQGILNCLAWYQQKPGKVPNLLMYAASTLQSGVPSRFSGSGFGTDFTLTISSLQPEDVATYYCQTYGGVSTFGGGTKVEIR
B9: TCN-532 (5262_H18) (antibody, V domains shown)
VH: QVQLQESGPGLVKPSETLSLTCTVSGGSVSSETYYWSWIRQPPGKGLEWIGYIYYIGNTDYRPSLKSRVTISLDTSKNQFSLKLSSVTAADTAVYYCARGAYYDSSGYPAFYIWGQGTMVTVSS
VL: QSVLTQPPSVSGAPGQRVTISCTGSSSNIGSDYDVHWYKQLPGTAPKLLIFGNSNRPSGVPDRFSGSKSGTSASLAITGLQAEDEADYYCQSYDSSLSGFHVFGSGTKVTVL
B10: TCN-533 (5256_A17a) (antibody, V domains shown)
VH: QVQLVQSGADVKKPGSSVTVSCKASGGSFSNYGINWVRQAPGQGLEWMGGIIPLINAPNYAPKFQGRVTITADMFSNIVSLQLTSLRTDDTAVYYCARRKMTTAIDYWGQGTLVTVSS
VL: B2 VL
B11: TCN-534 (5249_B02) (antibody, V domains shown)
VH: QVQLVQSGAEVKKPGSSVKVSCRESGGTFNGYTITWVRQAPGQGLEWMGGIIPMMGTVNYAQKLQGRVTITTDYFTKTAYMDLNNLRSEDTAMYYCVKIRYTGQQLLWGQGTLVTVSS
VL: DIQMTQSPSTLSASIGDRVTITCRASQSIASWLAWYQQKPGKAPKLLIYEAVNLESGVPSRFSGSGSGTDFTLTISSLQPDDFATYFCQHYGTISQTFGGGTKVEIK
B12: TCN-535 (5246_P19) (antibody, V domains shown)
VH: QVQLVQSGSEVKKPGTSVKVSCTASGSVFTNYGISWVRQAPGQGLEWMGGIIPLFGAAKYAQKFQGRVTITADESTKTVYMELSRLTSKDTAIYFCAKAPRVYEYYFDQWGQGTPVTVSS
VL: EIVLTQSPGTLSLSPGERATLSCRASQSVSSSQLAWYQQKPGQAPRLIIYGASTRATGIPDRFSGSGSGTDFTLTIGRLEPEDFAVFFCQQYSTSPPTFGQGTKVDFK
B13: TCN-536 (5095_N01) (antibody, V domains shown)
VH: QVQLQQWGAGLLKPSETLSLTCAVYGGSFSVSGYYWSWIRQPPGRGLEWIGEISHGGSTNYNPSLKSRVTISVDTTKNQFSLRLSSVTAADTAVYYCARGTDPDTEVYCRVGNCAAFDYWGQGSLVTVSS
VL: EIILAQSPGTLSLSPGERATLSCRASQFVSTRSLAWYQQRPGQAPRLLIYGASSRATGIPDRFSGSGSGTDFTLTISRLEPEDFAVYYCQHYGYSPRYAFGQGSKVEIK
B14: TCN-537 (3194_D21) (antibody, V domains shown)
VH: QVQLQQWGSGLLKPSETLSLTCAVYGGSFRDDYWTWIRQPPGKGLEWIGEINHSGRTNYNPSLKSRVTISVDTSLKQFSLKVISVTAADTAVYYCARGTSHVSRYFDWLPPTNWFDPWGQGTQVTVSS
VL: DIVLTQSPGTLSLSPGERATLSCRASQSVSSSYLAWYQQKPGQAPRLVMYGAATRATGIPDRFSGSGSGPDFTLTISRLEPEDFAMYYCQQYGNSPITFGQGTRLEIK
B15: TCN-538 (3206_O17) (antibody, V domains shown)
VH: QITLKESGPTLVKPTQTLTLTCVFSGFSLSITGVRVGWIRQPPGKALEWLALISWDDEKHYSPSLQSRLTITKDTSKNQVVLTMTNLDPVDTATYYCARSTDRGHVLRYFGWMLPGDAFDVWGQGTMVTVSS
VL: DIVMTQSPDFLPVSLGERATINCKSSQRVLYSSNNKNYLAWYQLKPGQPPKLIIYWASTRESGVPDRFSGSGSGTEFTLTISSLQAEDVAVYYCQQYYSRPYTFGQGTKLEIK
B16: TCN-539 (5056_A08) (antibody, V domains shown)
VH: QVQLVESGGGVVQPGRSLRLSCAASEITFITYAMHWVRQAPGKGLEWVALISDDGSNKFYADSVKGRFTISRDNSKNTLYLQMNSLRAEDTAAYYCAREGVYFDSGTYRGYFDYWGQETLVTVSS
VL: EIVLTQSPATLSLSPGERATLSCRASQSVSSYLAWYQQKPGQAPRLLIYDASNRATGIPARFSGSGSGTDFTLTISSLEPEDFAVYYCQQRSHWPPITFGQGTRLEIK
B17: TCN-540 (5060_F05) (antibody, V domains shown)
VH: QVQLVQSGGGVVQPGRSLRLSCAASGFTFSSYAMHWVRQAPGKGLEWVAIISYDGNDQYYTDSVKGRFTISRDSSKVYLQMHRLRPEDTAVYYCAKEFETSGYFHGSFDYWGQGILVTVSS
VL: QSALTQPASVSGSPGQSITISCTGTSSDVGGYNYVSWYQQHPGKAPKLLIYEVTNWPSGVSNRFSGSKSGNTASLTISGLQAEDEADYYCSSYAGSSTWVFGGGTRVTVL
B18: TCN-543 (5081_G23) (antibody, V domains shown)
VH: QVHLVQSGAEVRKPGDSVKVSCKTSGYTFSTYPVAWVRQVPGQGLEWMGWISTYNGNTNFAQNFQGRVTLTTDTTTNTAYMEVRSLKFDDTAVYYCARVEGSYRDFWNNQNRFDPWGQGTLVTVSS
VL: SYVLTQPPSVSVAPGQTARISCGGSNIGGKSVHWYQQKPGQAPVLVVYDDSGRPSGIPERFSGSNSGDTATLTISRVEAGDEADYFCQVWDNFGGVFGTGTKVTVL
B19: TCN-544 (5082_A19) (antibody, V domains shown)
VH: QVQLQESGPGLVKPSETLSLTCTVSRGSIGHYFWSWIRQPPGKGLEWIGYISYSGSTKYNPSLRSRVTISVDTSKNQFSLNLNSVTATDTALYYCAREDYDILTGAGPGMEVWGQGTTVTVSS
VL: QSMLTQPPSASGTPGQRVTISCSGSSSNIGSNTVNWFKHLPGTAPKLLIYRNDLRPSGVPDRFSGSKSGTSASLAISGLQSEDEADYYCATWDDSLNGFYVFGTGTKVTVL
B20: TCN-545 (5082_I15) (antibody, V domains shown)
VH: QVQLQQWGAGLLKPSETLSLSCAVFGGSFSDYYWTWIRQPPGKGLEWIGEIKHSGRTNYNPSLESRVTISVDTSKNQFSLKLSSVTAADTAIYYCARGTDPDTEGYCRSGSCSAFDFWGQGTLVTVSS
VL: EIVLTQSPGTLSLSPGERATLSCRASHFVNYRSLAWYQQTPGQVPRLLIYGASTRATGIPDRFSGSGSGTDFTLTISRLEPEDFAVYFCQQYGGSPRYTFGQGTRLEIK
B21: TCN-550 (5096_F06) (antibody, V domains shown)
VH: QVQLQESGPGLVKPSETLSLTCTVSGASINSHYWSWIRQPPGKGLEWIGYVYYSGSTTYNPSLKSRVTLSVDTSKNQFSLNLSSVTAADTAFYYCARHPYDVLTGSGDWFDPWGQGTLVTVSS
VL: SYVLTQAPSVSVAPGQTARITCGGNAIGSKKVHWYQHKAGQAPVLVVYDDTDRPSGIPERFSGSNSWSTATLTINRVEAGDEADYYCQVWDFTIDHVVFGGGTKLTVL

Target: hemagglutinin on whole inactivated influenza A virions, A/Japan/305/57 H2N2 (Influenza A virus A/Japan/305/1957(H2N2))

Binder	ELISA: Virus Binding (OD450)
B1	3.48 OD450
B2	3.55 OD450
B3	0.07 OD450
B4	3.62 OD450
B5	3.61 OD450
B6	0.07 OD450
B7	3.43 OD450
B8	0.07 OD450
B9	0.07 OD450
B10	3.56 OD450
B11	3.56 OD450
B12	3.35 OD450
B13	0.07 OD450
B14	3.59 OD450
B15	3.6 OD450
B16	0.06 OD450
B17	3.63 OD450
B18	3.64 OD450
B19	0.07 OD450
B20	0.06 OD450
B21	0.17 OD450
